In publication PMC7842926, “Synergistic effect and ultrastructural changes in Trypanosoma cruzi caused by isoobtusilactone A in short exposure of time” (PLoS ONE, 2021):

System: epimastigotes of T. cruzi (Dm28c, TcI)
Assay: Epimastigote cell viability assay (MTS/PMS), Dm28c
Type: cell-based, Trypanosoma cruzi
Settings: 4 h
Procedure: Epimastigote forms of three strains of T. cruzi, including Dm28c (TcI), CL Brener (TcVI), and Y strain (TcII), were maintained in liver infusion tryptose (LIT) medium supplemented with 10% fetal bovine serum at 28°C [16] were kindly provided by Oswaldo Cruz Institute/Fiocruz. For the experiments, exponential phase cultures were used. All assays were performed in triplicates in 96-well plates.
The effect of the isolated compounds on the viability of epimastigote forms of Dm28c strain was determined by MTS [3-(4,5-dimethylthiazol-2-yl)-5-(3-carboxymethoxyphenyl)-2-(4-sulfophenyl)-2H-tetrazolium bromide] with PMS (5-methyl-phenazinium methyl sulfate) colorimetric assay, as described by Nunes et al.. […]
The absorbance of the formazan was measured at 490 nm using a microplate reader (Asys Expert Plus -Biochrom). In parallel, we determined the effect of 1% DMSO (negative control) and benznidazole (positive control) on the viability of epimastigotes and a replicate of each treatment was performed by fixing the epimastigotes with 4% paraformaldehyde prior to the addition of MTS/PMS (basal absorbance control). […]

C=C1OC(=O)/C(=C/CCCCCCCCCCCCC)[C@@H]1O [Isoobtusilactone A, isoobtusilactone A]
SI value of 3 relative to 4, epimastigotes: about 39 fold | activity of 3 relative to 4 against epimastigotes: roughly 59 fold
